Pooled drug test results. Numbers come from NIAID ChemDB, via PubChem.

Common to all: tests in culture; species: HIV-1; method: cytopathic effect / MTT; read-out: EC50

Rows are shuffled and stem from different studies. Two numbers with a dash give a range or band. ECn: concentration that inhibits the pathogen or its effect by n%.

C=C(c1cc(C)cc(C)c1)c1c(CC)c(=O)[nH]c(=O)n1COCC ; cell line: MT-4 ; changes: RT-Y181C ; strain: IIIB ; result: 17 µM
OCCOCn1c(-c2ccccc2)c(Br)c(-c2ccccc2)c1-c1ccccc1 ; cell line: MT-4 ; result: >15 µM
Cc1ccc(-c2cc(-c3ccc(Cl)cc3)nc(/N=C3\C(=O)N(CN(C)C)c4ccccc43)n2)cc1 ; cell line: MT-4 ; strain: IIIB ; result: >10 µM
CC(=O)OCCOCn1c(-c2ccccc2)c(N)c(C#N)c1-c1ccccc1 ; cell line: MT-4 ; result: >300 µM
Cc1ccc(-c2nnc3sc(CC45CC6CC(CC(C6)C4)C5)nn23)cc1 ; cell line: MT-4 ; strain: IIIB ; result: >125 µg/mL
CC(=O)OCCOCn1c(-c2ccccc2)cc([N+](=O)[O-])c1-c1ccccc1 ; cell line: MT-4 ; result: >37 µM
O=S(=O)(O)O.O=S(=O)(O)O.O=S(=O)(O)O.O=S(=O)(O)O.O=S(=O)(O)O.O=S(=O)(O)O.O=S(=O)(O)O.O=S(=O)(O)O.O=S(=O)(O)O.O=S(=O)(O)O.O=S(=O)(O)O.O=S(=O)(O)O.OC[C@H]1O[C@@H]2O[C@H]3[C@H](O)[C@@H](O)[C@@H](O[C@H]4[C@H](O)[C@@H](O)[C@@H](O[C@H]5[C@H](O)[C@@H](O)[C@@H](O[C@H]6[C@H](O)[C@@H](O)[C@@H](O[C@H]7[C@H](O)[C@@H](O)[C@@H](O[C@H]1[C@H](O)[C@H]2O)O[C@@H]7CO)O[C@@H]6CO)O[C@@H]5CO)O[C@@H]4CO)O[C@@H]3CO ; cell line: MT-4 ; strain: IIIB ; result: 6.5 µg/mL
OCCOCn1c(-c2ccccc2)c(Br)c(Br)c1-c1ccccc1 ; cell line: MT-4 ; result: >51 µM
C=C(c1cccc2ccccc12)c1c(CC)c(=O)[nH]c(=O)n1COCC ; cell line: MT-4 ; strain: IIIB ; result: 4 µM
NC(=O)c1[nH]c2ccc(Cl)cc2c1S(=O)(=O)c1ccccc1 ; cell line: MT-4 ; strain: IIIB ; result: 0.00125 µM
CN(C)CCCN1c2ccccc2C2C1C=C(C#N)C(=O)N2c1ccc([N+](=O)[O-])cc1 ; cell line: MT-4 ; strain: LAI ; result: <1 µM
C#CCOCn1c(C(=C)c2ccccc2)c(CC)c(=O)[nH]c1=O ; cell line: MT-4 ; strain: IIIB ; result: 1.5 µM
CCc1c(Cc2cccc(Cc3[nH]c(=S)[nH]c(=O)c3CC)c2)[nH]c(=S)[nH]c1=O ; cell line: MT-4 ; changes: RT-K103N Y181C ; strain: RT-K103N+Y181C NNRTI-resistant ; result: >100 µM
C#CCOCn1c(C(=C)c2cc(C)cc(C)c2)c(CC)c(=O)[nH]c1=O ; cell line: MT-4 ; strain: IIIB ; result: 0.03 µM
CCOCn1c(Cc2ccccc2)c(C(C)C)c(=O)[nH]c1=O ; cell line: MT-4 ; changes: RT-Y181C ; strain: NNRTI-resistant ; result: 20 µM
CCCc1cc(=O)oc2c3c(c4c(c12)OC(C)(C)C=C4)O[C@@H](C)[C@H](C)[C@@H]3O ; cell line: CEM + CEM-SS ; result: 0.18 µM
C=CCOCn1c(Cc2cccc(Cc3c(CC)c(=O)[nH]c(=O)n3COCC=C)c2)c(CC)c(=O)[nH]c1=O ; cell line: MT-4 ; changes: RT-Y181C ; strain: NNRTI-resistant ; result: >100 µM
C=C(c1ccccc1)c1c(CC)c(=O)[nH]c(=O)n1COCC=C(C)C ; cell line: MT-4 ; strain: IIIB ; result: 3.1 µM
Cc1ccc(-c2cc(-c3ccc(Cl)cc3)nc(/N=C3\C(=O)N(CN4CCCCC4)c4ccc(Br)cc43)n2)cc1 ; cell line: MT-4 ; strain: IIIB ; result: >1 µM
CN1c2ccccc2C2C1C=C(c1nc(=S)o[nH]1)C(=O)N2c1ccc([N+](=O)[O-])cc1 ; cell line: MT-4 ; strain: LAI ; result: 1–32 µM
CCOC(=O)c1c(Br)c(-c2ccccc2)n(COCCO)c1-c1ccccc1 ; cell line: MT-4 ; result: >64 µM
Nc1ccn([C@H]2CC[C@@H](CO)O2)c(=O)n1 ; cell line: MT-4 ; strain: IIIB ; result: 0.088 µM
Cc1cn([C@H]2C[C@H](N=[N+]=[N-])[C@@H](CO)O2)c(=O)n(Cc2ccoc2)c1=O ; cell line: CEM-C113 + CEM/C113 ; strain: LAI ; result: 143 µM
O=C1Nc2ccc(Cl)cc2Sc2c1[nH]c1ccc(Cl)cc21 ; cell line: MT-4 ; strain: IIIB ; result: >200 µM
Brc1ccc(-c2nnc3sc(CC45CC6CC(CC(C6)C4)C5)nn23)cc1 ; cell line: MT-4 ; strain: IIIB ; result: >125 µg/mL
CCOC(=O)c1[nH]c2ccccc2c1S(=O)(=O)c1cc(Cl)ccc1N ; cell line: MT-4 ; strain: IIIB ; result: 2.2 µM
Cc1ccc(-c2cc(-c3ccc(Cl)cc3)nc(/N=C3\C(=O)Nc4ccc(Cl)cc43)n2)cc1 ; cell line: MT-4 ; strain: IIIB ; result: >8 µM
CCc1c(Cc2cccc(Cc3nc(SC(C)C)[nH]c(=O)c3CC)c2)nc(SC(C)C)nc1OC(C)C ; cell line: MT-4 ; result: >43 µM
C=C(c1cc(C)cc(C)c1)c1c(CC)c(=O)[nH]c(=O)n1COC/C=C/c1ccccc1 ; cell line: MT-4 ; changes: RT-Y181C ; strain: IIIB ; result: >100 µM
Cc1cn([C@H]2C[C@H](N=[N+]=[N-])[C@@H](COP(=O)(OCCC#N)OC3CCC4(C)C(=CCC5C4CCC4(C)C(C(C)CCCC(C)C)CCC54)C3)O2)c(=O)[nH]c1=O ; cell line: CEM ; result: 5.67 µM
CN1c2ccccc2C2C1C=CC(=O)N2c1ccc(-c2noc(C(F)(F)F)n2)cc1 ; cell line: MT-4 ; strain: LAI ; result: >32 µM
Cc1cn([C@@H]2O[C@H](CO)[C@]3(N=[N+]=[N-])CO[C@H]23)c(=O)[nH]c1=O ; cell line: MT-4 ; strain: IIIB ; result: >300 µM
Cc1ccc(-c2cc(-c3ccc(Cl)cc3)nc(/N=C3\C(=O)N(CN4CCOCC4)c4ccccc43)n2)cc1 ; cell line: MT-4 ; strain: IIIB ; result: >3 µM
Fc1ccc(-c2nnc3sc(CC45CC6CC(CC(C6)C4)C5)nn23)cc1 ; cell line: MT-4 ; strain: IIIB ; result: >65.33 µg/mL
CCOC(=O)c1c(Cl)c(-c2ccccc2)n(COCCOC(C)=O)c1C ; cell line: MT-4 ; result: >82 µM
C=C(c1cc(C)cc(C)c1)c1c(CC)c(=O)[nH]c(=O)n1COC1Cc2ccccc2C1 ; cell line: MT-4 ; strain: IIIB ; result: 0.3 µM
CC(=O)OCCOCn1c(-c2ccccc2)c(Br)c(Br)c1-c1ccccc1 ; cell line: MT-4 ; result: >23 µM
Cc1ccc(-c2cc(-c3ccc(Cl)cc3)nc(/N=C3\C(=O)N(CN4CCOCC4)c4ccc(Br)cc43)n2)cc1 ; cell line: MT-4 ; strain: IIIB ; result: >2 µM
Clc1ccc(-c2nnc3sc(CC45CC6CC(CC(C6)C4)C5)nn23)cc1 ; cell line: MT-4 ; strain: IIIB ; result: >125 µg/mL
N#CC1=CC2C(c3ccccc3N2CCN2CCCCC2)N(c2ccc([N+](=O)[O-])cc2)C1=O ; cell line: MT-4 ; strain: LAI ; result: <1 µM
C=CCOCn1c(C(=C)c2cc(C)cc(C)c2)c(CC)c(=O)[nH]c1=O ; cell line: MT-4 ; changes: RT-K103N Y181C ; strain: IIIB ; result: >100 µM
Cc1ccc(-c2cc(-c3ccc(Cl)cc3)nc(/N=C3\C(=O)N(CN4CCCCC4)c4ccc(Cl)cc43)n2)cc1 ; cell line: MT-4 ; strain: IIIB ; result: >3 µM
CN1C(=O)[C@@H](c2cc(Cl)c(O)c(Cl)c2)NC(=O)[C@@H]2NC(=O)[C@H](c3cc(Cl)c(O)c(Cl)c3)NC(=O)[C@@H](NC(=O)C(=O)c3cc(Cl)c(O)c(Cl)c3)Cc3c[nH]c4cc(ccc34)-c3cc2cc(c3O)Oc2ccc(cc2)C[C@H]1C(=O)N[C@@H](C(=O)O)c1ccc(O)cc1 ; cell line: MT-4 ; strain: IIIB ; result: 1.6 µM
NC(=O)c1[nH]c2ccc(Cl)cc2c1S(=O)(=O)c1ccccc1 ; cell line: MT-4 ; changes: RT-K103N Y181C ; result: 8 µM
CCCc1cc(=O)oc2c3c(c4c(c12)OC(C)(C)C=C4)O[C@H](C)[C@@H](C)[C@@H]3O ; cell line: CEM + CEM-SS ; result: 0.08 µM
CCOC(=O)c1c([N+](=O)[O-])c(-c2ccccc2)n(COCCO)c1C ; cell line: MT-4 ; result: >300 µM

A second listing of 3 rows from above:

{"structure": "Cc1cn([C@H]2C[C@H](N=[N+]=[N-])[C@@H](COP(=O)(OCCC#N)OC3CCC4(C)C(=CCC5C4CCC4(C)C(C(C)CCCC(C)C)CCC54)C3)O2)c(=O)[nH]c1=O", "cell line": "CEM", "result": "5.67 µM"}
{"structure": "C=C(c1cc(C)cc(C)c1)c1c(CC)c(=O)[nH]c(=O)n1COC/C=C/c1ccccc1", "cell line": "MT-4", "changes": "RT-Y181C", "strain": "IIIB", "result": ">100 µM"}
{"structure": "C=C(c1cccc2ccccc12)c1c(CC)c(=O)[nH]c(=O)n1COCC", "cell line": "MT-4", "strain": "IIIB", "result": "4 µM"}